{
  "source": "paper doi:10.1101/2025.02.03.636340",
  "about": "(bioRxiv, 2025)",
  "binders": {"B1": {"name": "β-arr1-Halo (rat beta-arrestin 1, wild type, C-terminally Halo-tagged) (natural protein)", "chain": "MGDKGTRVFKKASPNGKLTVYLGKRDFVDHIDLVDPVDGVVLVDPEYLKERRVYVTLTCAFRYGREDLDVLGLTFRKDLFVANVQSFPPAPEDKKPLTRLQERLIKKLGEHAYPFTFEIPPNLPCSVTLQPGPEDTGKACGVDYEVKAFCAENLEEKIHKRNSVRLVIRKVQYAPERPGPQPTAETTRQFLMSDKPLHLEASLDKEIYYHGEPISVNVHVTNNTNKTVKKIKISVRQYADICLFNTAQYKCPVAMEEADDTVAPSSTFCKVYTLTPFLANNREKRGLALDGKLKHEDTNLASSTLLREGANREILGIIVSYKVKVKLVVSRGGLLGDLASSDVAVELPFTLMHPKPKEEPPHREVPESETPVDTNLIELDTNDDDIVFEDFARQRLKGMKDDKDEEDDGTGSPHLNNR", "modifications": "Halo tag labelled with CA-JF549"}, "B2": {"name": "β-arr1-ΔCTD-Halo (rat beta-arrestin 1 lacking the autoinhibitory C-terminal domain, aa 383-418) (domain or fragment)", "chain": "MGDKGTRVFKKASPNGKLTVYLGKRDFVDHIDLVDPVDGVVLVDPEYLKERRVYVTLTCAFRYGREDLDVLGLTFRKDLFVANVQSFPPAPEDKKPLTRLQERLIKKLGEHAYPFTFEIPPNLPCSVTLQPGPEDTGKACGVDYEVKAFCAENLEEKIHKRNSVRLVIRKVQYAPERPGPQPTAETTRQFLMSDKPLHLEASLDKEIYYHGEPISVNVHVTNNTNKTVKKIKISVRQYADICLFNTAQYKCPVAMEEADDTVAPSSTFCKVYTLTPFLANNREKRGLALDGKLKHEDTNLASSTLLREGANREILGIIVSYKVKVKLVVSRGGLLGDLASSDVAVELPFTLMHPKPKEEPPHREVPESETPVDTNLIELDTN", "modifications": "Halo tag labelled with CA-JF549 (or a mix of CA-JF549 and CA-JF646)"}, "B3": {"name": "β-arr1-ΔCTD co-purified with HA-FLAG-mGluR8 (domain or fragment)", "chain": "MGDKGTRVFKKASPNGKLTVYLGKRDFVDHIDLVDPVDGVVLVDPEYLKERRVYVTLTCAFRYGREDLDVLGLTFRKDLFVANVQSFPPAPEDKKPLTRLQERLIKKLGEHAYPFTFEIPPNLPCSVTLQPGPEDTGKACGVDYEVKAFCAENLEEKIHKRNSVRLVIRKVQYAPERPGPQPTAETTRQFLMSDKPLHLEASLDKEIYYHGEPISVNVHVTNNTNKTVKKIKISVRQYADICLFNTAQYKCPVAMEEADDTVAPSSTFCKVYTLTPFLANNREKRGLALDGKLKHEDTNLASSTLLREGANREILGIIVSYKVKVKLVVSRGGLLGDLASSDVAVELPFTLMHPKPKEEPPHREVPESETPVDTNLIELDTN"}},
  "key": {"[1]": {"target": "HA-SNAP-mGluR2 (rat metabotropic glutamate receptor 2) (rat, SNAP tag labelled with SBG-JF646)", "assay": "single molecule pulldown"}, "[2]": {"target": "HA-SNAP-mGluR3 (rat metabotropic glutamate receptor 3) (rat, SNAP tag labelled with SBG-JF646)", "assay": "single molecule pulldown"}, "[3]": {"target": "T1, HA-FLAG-mGluR8 (full-length, human, wild-type mGluR8 for EM) (human, UniProt O00222 34-908)", "T1 sequence": "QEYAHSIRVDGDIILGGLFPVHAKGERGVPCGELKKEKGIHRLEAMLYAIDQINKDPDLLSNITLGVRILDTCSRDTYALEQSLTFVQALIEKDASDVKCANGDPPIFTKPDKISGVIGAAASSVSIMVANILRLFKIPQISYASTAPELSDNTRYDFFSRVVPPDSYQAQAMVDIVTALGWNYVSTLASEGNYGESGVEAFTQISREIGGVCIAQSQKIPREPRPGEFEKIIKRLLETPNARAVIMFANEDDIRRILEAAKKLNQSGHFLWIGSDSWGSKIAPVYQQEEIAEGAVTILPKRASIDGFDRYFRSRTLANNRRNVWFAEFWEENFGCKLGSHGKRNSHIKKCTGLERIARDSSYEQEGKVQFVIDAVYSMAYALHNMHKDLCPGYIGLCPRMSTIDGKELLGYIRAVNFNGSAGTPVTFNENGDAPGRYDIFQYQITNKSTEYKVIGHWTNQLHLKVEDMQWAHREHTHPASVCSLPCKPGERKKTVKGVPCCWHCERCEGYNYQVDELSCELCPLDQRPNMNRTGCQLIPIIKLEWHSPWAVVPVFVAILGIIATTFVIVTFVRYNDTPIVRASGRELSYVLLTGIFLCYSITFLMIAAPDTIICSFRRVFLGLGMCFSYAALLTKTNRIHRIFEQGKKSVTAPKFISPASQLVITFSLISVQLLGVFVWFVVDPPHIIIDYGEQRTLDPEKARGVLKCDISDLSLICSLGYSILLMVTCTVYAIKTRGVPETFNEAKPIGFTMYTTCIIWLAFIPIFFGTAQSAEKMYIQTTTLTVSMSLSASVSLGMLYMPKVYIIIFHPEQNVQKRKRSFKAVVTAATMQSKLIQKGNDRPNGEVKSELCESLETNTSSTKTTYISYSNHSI", "assay": "negative stain EM"}},
  "data": [
    {"binder": "B1", "values": [
      {"measurement": "% colocalization", "setting": "[1]", "value": "< 5", "unit": "%"}
    ]},
    {"binder": "B2", "values": [
      {"measurement": "% colocalization", "setting": "[2]", "value": "~25", "unit": "%"},
      {"measurement": "% colocalization", "setting": "[1]", "value": "< 5", "unit": "%"}
    ]},
    {"binder": "B3", "values": [
      {"measurement": "binding result", "setting": "[3]", "value": "binds"}
    ]}
  ]
}
